Data published in patent US20240262869A1.

Biological target: ACE2-hFc (human) (UniProt Q9BYF1)
Assay: SPR, His-tagged candidate captured on anti-His antibody, ACE2-hFc as analyte

iInCV02R (SARS CoV-2 RBD) (from UniProt P0DTC2 332-532) (ligand; other documents disagree on this pair)
Kd: 0.9 nM
